Results of unrelated studies side by side (data: NIAID ChemDB).

Common to all: cytotoxicity tests; cell line: HEL; endpoint: CC50

CCn: concentration that lowers growth or viability of the cells by n%.

Nc1nc(N)c2ncn(C[C@H]3CC[C@@H](CO)C3)c2n1 ; value: 100 µg/mL
O=C(O)/C=C/c1ccc(O)c(O)c1 ; value: 74 µg/mL
Nc1nc(N)c2nnn(C[C@H]3CC[C@@H](CO)C3)c2n1 ; value: 50 µg/mL
O=c1[nH]c(=O)n([C@H]2C[C@H](O)[C@@H](CO)S2)cc1C1CCCC1 ; value: >150 µM
C(=C\c1ccncc1)/c1ccncc1 ; value: >50 µM
O=c1[nH]c(=O)n([C@H]2C[C@H](O)[C@@H](CO)S2)cc1C1CC1 ; value: >200 µM
Nc1nc2c(ncn2C[C@H]2CC[C@@H](CO)C2)c(=O)[nH]1 ; value: 80 µg/mL
Cc1c(CC(=O)O)ccc(O)c1O ; value: >200 µg/mL
CCCCCCCCCCCCCCCCOCCOP1(=O)CO[C@@H](Cn2cnc3c(N)nc(N)nc32)CO1 ; value: 28.1 µM
O=c1[nH]c(=O)n([C@H]2C[C@H](O)[C@@H](CO)O2)cc1/C=C/Br ; read by: MTS ; value: >500 µM
CCc1cn([C@H]2C[C@H](O)[C@@H](CO)S2)c(=O)[nH]c1=O ; value: ≥200 µM
Nc1nc2c(ncn2COC(CO)CO)c(=O)[nH]1 ; value: 1077 µM
Nc1nc2c(ncn2COCCO)c(=O)[nH]1 ; value: >844 µM
Cc1cc(O)cc(O)c1CC(=O)O ; value: 100 µg/mL
c1ccc(C2O[C@@H]2c2ccccc2)cc1 ; value: >50 µM
CCCc1cn([C@H]2C[C@H](O)[C@@H](CO)S2)c(=O)[nH]c1=O ; value: >200 µM
O=c1[nH]c(=O)n([C@H]2C[C@H](O)[C@@H](CO)O2)cc1I ; value: 76 µM
Nc1nc2c(ncn2C[C@]2(CO)C[C@H]2CO)c(=O)[nH]1 ; read by: MTS ; value: >175 µM
Nc1nc(N)c2ncn(CCOCP(=O)(O)O)c2n1 ; value: 40 µg/mL
O=C(O)P(=O)(O)O ; value: 200 µg/mL
Nc1nc2c(ncn2C2C[C@H](O)[C@@H](O)C2)c(=O)[nH]1 ; value: 196 µg/mL
C[C@]12CC[C@@H]3c4ccc(O)cc4CC[C@H]3[C@@H]1CC[C@@H]2O ; value: >20 µM
Nc1ncnc2c1ncn2[C@@H]1O[C@H](CO)[C@@H](O)[C@@H]1O ; value: 120 µM
Nc1nc(N)c2ncn(CC(CO)OCP(=O)(O)O)c2n1 ; value: >200 µg/mL
O=c1[nH]c(=O)n([C@H]2C[C@H](O)[C@@H](CO)S2)cc1C1CCC1 ; value: >150 µM
NCC(=O)c1ccc(O)c(O)c1 ; value: ≥200 µg/mL
C=Cc1cn([C@@H]2O[C@H](CO)[C@@H](O)[C@@H]2O)c(=O)[nH]c1=O ; value: >592 µM
O=c1[nH]cnc2c1ncn2CCOCP(=O)(O)O ; value: >400 µg/mL
Nc1ncc2c(ncn2COC(CO)CO)n1 ; read by: MTS ; value: >400 µM
C(=C\c1ccccc1)/c1ccccc1 ; value: >50 µM
Nc1nc2c(ncn2COC(CO)CO)c(=O)[nH]1 ; value: 242 µg/mL
Nc1nccc2c1ncn2[C@@H]1O[C@H](CO)[C@@H](O)[C@H]1O ; value: >200 µg/mL
O=c1[nH]c(=O)n([C@H]2C[C@H](O)[C@@H](CO)O2)cc1-c1ccc(Cl)s1 ; value: 290 µM
O=c1cc(-c2ccc(O)c(O)c2)oc2cc(O)cc(O)c12 ; value: 62 µM
O=c1[nH]cnc2c1ncn2CC(CO)OCP(=O)(O)O ; value: >400 µg/mL
Nc1nc2c(ncn2CCC(CO)CO)c(=O)[nH]1 ; read by: MTS ; value: >750 µM
Cc1cn([C@@H]2O[C@H](CO)C[C@@H]2O)c(=O)[nH]c1=O ; value: >661 µM
O=c1ccn([C@H]2C[C@H](O)[C@@H](CO)S2)c(=O)[nH]1 ; value: >200 µM
CC(=O)N(O)CCCCCNC(=O)CCC(=O)N(O)CCCCCNC(=O)CCC(=O)N(O)CCCCCN ; value: 6.37 µg/mL
O=c1[nH]c(=O)n([C@@H]2O[C@H](CO)[C@@H](O)[C@@H]2O)cc1/C=C/Br ; value: >406 µM
O=c1ccn([C@H]2C[C@H](O)[C@@H](CO)O2)c(=O)[nH]1 ; value: >200 µM
Nc1nccc2c1ncn2[C@@H]1C[C@H](CO)[C@@H](O)[C@H]1O ; value: 85 µg/mL
Nc1ncnc2c1ncn2[C@@H]1O[C@H](CO)[C@H]1CO ; value: 498 µM
O=c1[nH]c(=O)n(C2CC(O)C(CO)O2)cc1/C=C/Br ; value: 201 µM
CCCCCCCCCCCCCCCCOCCCOP1(=O)CO[C@@H](Cn2cnc3c(N)nc(N)nc32)CO1 ; value: 13.7 µM
Nc1ncnc2c1ncn2[C@@H]1C=C(CO)[C@@H](O)[C@H]1O ; value: 43 µg/mL
Nc1ccn([C@@H]2O[C@H](CO)[C@@H](O)[C@@H]2O)c(=O)n1 ; value: 0.2 µM
CC#Cc1cn([C@H]2C[C@H](O)[C@@H](CO)O2)c(=O)[nH]c1=O ; value: 312 µM
Nc1ncnc2c1ncn2C[C@@H](CO)OCP(=O)(O)O ; value: 20 µg/mL
NC(=O)c1nc(F)c[nH]c1=O ; value: >1000 µg/mL
O=C(O)Cc1ccc(O)c(O)c1 ; value: 200 µg/mL
Nc1nc2c(ncn2CC(CO)OCP(=O)(O)O)c(=O)[nH]1 ; value: 10 µg/mL
Cc1cn([C@H]2C[C@H](N=[N+]=[N-])[C@@H](CO)O2)c(=O)[nH]c1=O ; read by: MTS ; value: 175 µM
C[C@H]1C[C@@H](n2cnc3c(N)ncnc32)[C@H](O)[C@@H]1O ; value: >50 µg/mL
Nc1ncnc2c1ncn2CCOCP(=O)(OCCOCCCCCCCCCCO)OCCOCCCCCCCCCCO ; read by: cell count ; value: 62.5 µM
C[C@@]1(CO)[C@H](O)CC[C@@]2(C)[C@H]1CC[C@H]1C[C@@H]3C[C@@]12CC[C@]3(O)CO ; value: >200 µg/mL
Cc1cn(CC(CO)OCP(=O)(O)O)c(=O)[nH]c1=O ; value: >400 µg/mL
O=C(O)P(=O)(O)O ; read by: MTS ; value: 500 µM
O=C(O)P(=O)(O)O ; value: 200 µg/mL
O=C(O)c1cc(O)ccc1O ; value: 95 µg/mL
Nc1nc2c(ncn2CCOCP(=O)(O)O)c(=O)[nH]1 ; value: 2.5 µg/mL
Nc1nccc2c1ncn2[C@@H]1C=C[C@@H](O)[C@H]1O ; value: 13.5 µg/mL
C(/C=C/c1ccccc1)=C\c1ccccc1 ; value: >50 µM
Nc1ncnc2c1ncn2C[C@@H](CO)OCP(=O)(O)O ; value: >70 µg/mL
O=c1[nH]c(=O)n([C@H]2C[C@H](O)[C@@H](CO)O2)cc1/C=C/Br ; value: >600 µM
CC(C)(C)C(=O)OCOC(=O)CN(CC(=O)OCOC(=O)C(C)(C)C)P(=O)(OC[C@H]1O[C@@H](n2cc(/C=C/Br)c(=O)[nH]c2=O)C[C@@H]1O)Oc1ccccc1 ; value: 43 µM
CC(C)(C)C(=O)OCOP1(=O)CO[C@@H](Cn2cnc(N)nc2=O)CO1 ; value: 14 µg/mL
O=C(O)Cc1cc(O)ccc1O ; value: 130 µg/mL
O=C(O)/C=C/c1ccc(O)c(O)c1.O=C(O)CCc1ccc(O)c(O)c1 ; value: 76 µg/mL

Repeating the final 9 entries:

smiles | read by | value
Nc1nc2c(ncn2CCOCP(=O)(O)O)c(=O)[nH]1 | - | 2.5 µg/mL
Nc1nccc2c1ncn2[C@@H]1C=C[C@@H](O)[C@H]1O | - | 13.5 µg/mL
C(/C=C/c1ccccc1)=C\c1ccccc1 | - | >50 µM
Nc1ncnc2c1ncn2C[C@@H](CO)OCP(=O)(O)O | - | >70 µg/mL
O=c1[nH]c(=O)n([C@H]2C[C@H](O)[C@@H](CO)O2)cc1/C=C/Br | - | >600 µM
CC(C)(C)C(=O)OCOC(=O)CN(CC(=O)OCOC(=O)C(C)(C)C)P(=O)(OC[C@H]1O[C@@H](n2cc(/C=C/Br)c(=O)[nH]c2=O)C[C@@H]1O)Oc1ccccc1 | - | 43 µM
CC(C)(C)C(=O)OCOP1(=O)CO[C@@H](Cn2cnc(N)nc2=O)CO1 | - | 14 µg/mL
O=C(O)Cc1cc(O)ccc1O | - | 130 µg/mL
O=C(O)/C=C/c1ccc(O)c(O)c1.O=C(O)CCc1ccc(O)c(O)c1 | - | 76 µg/mL

Rows are shuffled and stem from different studies. An empty or dashed field is not shown.